A mixed list of measured activities; the numbers were collected in NIAID ChemDB.

Common to all: tests on isolated targets; species: HIV-1; target: Reverse transcriptase; endpoint: IC50

ICn is the concentration giving n% inhibition.

compound | strain | changes | method | value
COc1cc2c(c(OC)c1OC)-c1c(cc3c(c1OC)OCO3)C[C@H](C)[C@@](C)(O)[C@H]2OC(=O)c1ccccc1 | - | - | nucleotide incorporation | >100 µM
Cc1cccc(N2C(=O)CSC23CCCCC3)n1 | - | - | ELISA | >10 µg/mL
O=C(/C=C/c1ncc(-c2cccnc2)cn1)Nc1cc(-c2ccc3c(c2)CCCC3)[nH]n1 | NL4-3 | WT | RT activity / nucleotide incorporation / luminescence | 0.2 µM
Cc1c(Cc2c(F)cccc2F)nc(SCc2ccc(C(C)C)cc2)[nH]c1=O | - | RT-181I | nucleotide incorporation / radiometric | >400 µM
O=C(Nc1nnc(-c2ccc3c(c2)CCCC3)o1)C1=COCCO1 | NL4-3 | WT | RT activity / nucleotide incorporation / luminescence | 8.5 µM
CCOc1ccc(CSc2nc(Cc3c(Cl)cccc3Cl)c(C)c(=O)[nH]2)cc1 | - | RT-K103N | nucleotide incorporation / radiometric | >400 µM
CCOCn1c(Cc2ccccc2)c(C(C)C)c(=O)[nH]c1=O | IIIB | - | RT activity | 0.106 µM
Cc1c(Sc2ccccc2)n(COCCO)c(=O)[nH]c1=O | - | RT-Y181I | nucleotide incorporation | 2 µM
COc1c(O)c(Cl)c2c(c1OC)-c1c(c(Cl)c(O)c(OC)c1OC)C[C@H](C)[C@H](C)C2 | - | - | - | 1.2 µM
Cc1nnn([C@H]2C[C@H](n3cc(C)c(=O)[nH]c3=O)O[C@@H]2COP(=O)(O)OP(=O)(O)OP(=O)(O)O)c1C | LAV | - | RT activity | >50 µM
Cc1nc(N2C(=O)CSC2c2c(Cl)cccc2Cl)ccc1Br | - | - | ELISA | >10 µg/mL
O=c1c(O)c(-c2ccc(O)c(O)c2)oc2cc(O)cc(O)c12 | - | - | RT activity / fluorescence | >100 µg/mL
Cc1c(Cc2c(Cl)cccc2Cl)nc(S(=O)(=O)Cc2ccc(Br)cc2)[nH]c1=O | WT | - | nucleotide incorporation / radiometric | >400 µM
Cc1ccc(CN2C(=O)CSC2c2c(Cl)cccc2Cl)o1 | - | - | ELISA | ~10 µg/mL
C=C(CC[C@@H](C)[C@H]1CC[C@@]2(C)[C@@H]3CC[C@H]4[C@](C)(C(=O)O)[C@@H](O)CC(=O)[C@@]45C[C@@]35CC[C@]12C)C(C)C | - | - | nucleotide incorporation / radiometric | 47.9 µg/mL
CCc1cc(CCc2nc3ccccc3o2)c(=S)[nH]c1C | - | - | nucleotide incorporation | 0.027 µM
Cc1cn([C@H]2C[C@H](n3nncc3C)[C@@H](COP(=O)(O)OP(=O)(O)OP(=O)(O)O)O2)c(=O)[nH]c1=O | LAV | - | RT activity | >50 µM
O=c1c(-c2ccc(O)cc2)coc2cc(O)cc(O)c12 | - | - | RT activity / fluorescence | >100 µg/mL
Cc1cn([C@@H]2O[C@H](CO[Si](C)(C)C(C)(C)C)C3(OS(=O)(=O)C=C3N)[C@H]2O[Si](C)(C)C(C)(C)C)c(=O)n(C)c1=O | IIIB | RT-P225H | RT activity | 6.6 µM
O=C(Nc1cc(-c2ccc3c(c2)CCCC3)[nH]n1)c1ccc(-c2cncnc2)s1 | NL4-3 | WT | RT activity / nucleotide incorporation / luminescence | 0.45 µM
Cc1c(Cc2c(Cl)cccc2Cl)nc(SCc2ccc(C#N)cc2)[nH]c1=O | - | RT-K103N | nucleotide incorporation / radiometric | >400 µM
Cc1cc(C)cc([C@]23SCCN2C(=O)c2ccccc23)c1 | IIIB | RT-Y181C | ELISA | 5.2 µM
CCN1c2ncccc2C(=O)N(C)c2ccc(-c3c[nH]c4cnccc34)nc21 | - | RT-V106A | nucleotide incorporation | 0.288 µM
COc1cc2c(ccc3c4cc(OC)c(OC)cc4c[n+](C)c23)cc1O | - | - | nucleotide incorporation / radiometric | 10.9 µg/mL
Cc1occc1C(=S)Nc1ccc(Cl)c(/C=N/OC(C)(C)C)c1 | - | - | - | 5.5 µM
C=C(C)OC(=O)N1c2cc(Cl)ccc2NC(=S)C1(C)C | IIIB | - | RT activity | 0.076 µM
O=C1c2ccccc2C2(c3ccccc3)SCCN12 | IIIB | RT-K103N | ELISA | 88 µM
CCCCOc1ccc(CSc2nc(Cc3c(Cl)cccc3Cl)c(C)c(=O)[nH]2)cc1 | - | RT-K103N | nucleotide incorporation / radiometric | >400 µM
O=C1CSC2(CCCCC2)N1c1ccccn1 | - | - | ELISA | >10 µg/mL
O=c1cc(-c2ccc(O)c(-c3c(O)cc(O)c4c(=O)cc(-c5ccc(O)cc5)oc34)c2)oc2cc(O)cc(O)c12 | - | - | RT activity / fluorescence | 30.9 µg/mL
O=C1CSC(c2c(Cl)cccc2Cl)N1Cc1ccco1 | - | - | ELISA | <10 µg/mL
Cc1c(Sc2ccccc2)n(COCCO)c(=O)[nH]c1=O | - | RT-V179D | - | ~1 µM
O=C(Nc1cc(-c2ccc3c(c2)CCCC3)[nH]n1)c1ccc(-c2ccncc2)s1 | NL4-3 | K103N | RT activity / nucleotide incorporation / luminescence | 0.22 µM
O=c1cc(-c2ccc(O)cc2)oc2cc(O)c(O)c(O)c12 | - | - | RT activity / fluorescence | 53.1 µg/mL
CCc1cc(CCc2nc3ccccc3o2)c(=O)[nH]c1C | - | - | nucleotide incorporation | 0.029 µM
C/C=C/CSc1cc(NC(=S)c2ccsc2C)ccc1Cl | - | RT-L100I | - | 9.5 µM
Oc1cc(O)c2c(c1)O[C@H](c1cc(O)c(O)c(O)c1)[C@@H](O)C2 | - | - | RT activity / fluorescence | >100 µg/mL
COc1ccc(CSc2nc(Cc3ccc(F)cc3)c(C)c(=O)[nH]2)cc1 | - | RT-K103N | nucleotide incorporation / radiometric | >400 µM
O=C(O)c1ccc2ccc(/C=C/c3cc(O)c(O)c(O)c3)nc2c1O | - | - | - | >100 µM
COc1cc2c(c(OC)c1OC)-c1c(cc3c(c1OC)OCO3)C[C@H](C)[C@H](C)C2 | - | - | nucleotide incorporation | 29 µM
Cc1c(C(=O)N(C)Cc2cccnc2)[nH]c(C(N)=O)c1S(=O)(=O)c1ccccc1 | NL4-3 | K103N | RT activity / nucleotide incorporation / luminescence | 1.2 µM
O=c1cc(-c2ccc(O)c(O)c2)oc2cc(O)cc(O)c12 | - | - | RT activity / fluorescence | >100 µg/mL
CN(C)P(=O)(c1ccccc1)c1c(C(N)=O)[nH]c2ccc(Cl)cc12 | - | RT-K103N | - | >3.57 µM
Cc1c(Cc2c(Cl)cccc2Cl)nc(SCc2ccc3c(c2)OCO3)[nH]c1=O | - | RT-K103N | nucleotide incorporation / radiometric | >400 µM
COc1cc(O)c2c(=O)cc(-c3c(OC)c(OC)c(OC)c(OC)c3OC)oc2c1 | - | - | nucleotide incorporation / radiometric | >200 µg/mL
Cc1c(Cc2c(Cl)cccc2Cl)nc(SCc2cccc(C#N)c2)[nH]c1=O | - | RT-181I | nucleotide incorporation / radiometric | >400 µM
O=C1CSC2(CCCCC2)N1Cc1ccco1 | - | - | ELISA | >10 µg/mL

The last 5 rows once more:

compound | strain | changes | method | value
CN(C)P(=O)(c1ccccc1)c1c(C(N)=O)[nH]c2ccc(Cl)cc12 | - | RT-K103N | - | >3.57 µM
Cc1c(Cc2c(Cl)cccc2Cl)nc(SCc2ccc3c(c2)OCO3)[nH]c1=O | - | RT-K103N | nucleotide incorporation / radiometric | >400 µM
COc1cc(O)c2c(=O)cc(-c3c(OC)c(OC)c(OC)c(OC)c3OC)oc2c1 | - | - | nucleotide incorporation / radiometric | >200 µg/mL
Cc1c(Cc2c(Cl)cccc2Cl)nc(SCc2cccc(C#N)c2)[nH]c1=O | - | RT-181I | nucleotide incorporation / radiometric | >400 µM
O=C1CSC2(CCCCC2)N1Cc1ccco1 | - | - | ELISA | >10 µg/mL

Blank or dashed fields: not listed here. Neighbouring rows are from separate reports.